PubChem BioAssay AID1259414 | Drosophila RNAi Screening Center | 2018
The deposit covers about 24,000 reagents; shown is an unselected part of those that have a named target and a result. Of all reagents, about 1,210 (5%) were called active. 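Inactive calls also include excluded dsRNAs with several or no targets, genes unexpressed in JW18, and well A1, regardless of score.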 Names joined by + are all predicted targets of the reagent.

- Test: 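Genome-wide screen for host control of endosymbiont load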 (primary screen)
- Cells: Drosophila JW18 cells infected with Wolbachia
- Knock-down reagent: long dsRNA against Drosophila genes, 0.25 µg dsRNA per well of a 384-well plate
- Duration: 5 days
- Treatment: cells persistently infected with Wolbachia before knock-down; no added drug
- Measurement: 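Automated imaging of bacterial rRNA staining divided by host cell count, reported as plate-normalised robust z-score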
- Scale: Wolbachia per cell robust z: higher = more Wolbachia per host cell than the plate typical
- Rule for the call: 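Active if absolute robust z reaches 1.5 in two or more of three replicates, leaving out multi- or no-target dsRNAs, genes unexpressed in JW18 and A1 wells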

Against inaF-D + inaF-B + inaF-A + 1 more [DRSC28607], the entry reads Wolbachia per cell robust z, rep 1 = 0.498; Wolbachia per cell robust z, rep 2 = -1.28; Wolbachia per cell robust z, rep 3 = -0.52; inactive. Depletion of Uqcc1 + CG9948 [DRSC09690] gave: Wolbachia per cell robust z, rep 1 = -7.35; Wolbachia per cell robust z, rep 2 = -1.11; Wolbachia per cell robust z, rep 3 = -0.0243; inactive. Against Sec20 [DRSC12295], the entry reads Wolbachia per cell robust z, rep 1 = -1.07; Wolbachia per cell robust z, rep 2 = -1.16; Wolbachia per cell robust z, rep 3 = -1.05; inactive. For Sec20 [DRSC29886] the deposit lists Wolbachia per cell robust z, rep 1 = 0.578; Wolbachia per cell robust z, rep 2 = 1.25; Wolbachia per cell robust z, rep 3 = 0.396; inactive. spoon [DRSC18299] scored Wolbachia per cell robust z, rep 1 = -0.62; Wolbachia per cell robust z, rep 2 = 0.228; Wolbachia per cell robust z, rep 3 = 0.304; inactive. spoon [DRSC24520] scored Wolbachia per cell robust z, rep 1 = -0.157; Wolbachia per cell robust z, rep 2 = 0.754; Wolbachia per cell robust z, rep 3 = -0.91; inactive.

Against CG31870 [DRSC21681] the deposit lists Wolbachia per cell robust z, rep 1 = 1.22; Wolbachia per cell robust z, rep 2 = 0.991; Wolbachia per cell robust z, rep 3 = 1.47; inactive. With knock-down of CG31870 [DRSC27838], the record shows Wolbachia per cell robust z, rep 1 = 0.777; Wolbachia per cell robust z, rep 2 = 0.278; Wolbachia per cell robust z, rep 3 = -0.724; inactive. Depletion of Sdr [DRSC15517] came out at: Wolbachia per cell robust z, rep 1 = 0.12; Wolbachia per cell robust z, rep 2 = 0.35; Wolbachia per cell robust z, rep 3 = 0.247; inactive. Against ProRS-m [DRSC08261], the entry reads Wolbachia per cell robust z, rep 1 = -0.381; Wolbachia per cell robust z, rep 2 = -3.43; Wolbachia per cell robust z, rep 3 = -0.2; inactive. ProRS-m [DRSC30008] gave Wolbachia per cell robust z, rep 1 = 0.085; Wolbachia per cell robust z, rep 2 = -0.0884; Wolbachia per cell robust z, rep 3 = 0.848; inactive. Silencing of Trf2 [DRSC18727] resulted in: Wolbachia per cell robust z, rep 1 = 0.288; Wolbachia per cell robust z, rep 2 = 0.142; Wolbachia per cell robust z, rep 3 = 0.307; inactive.

Silencing of Trf2 [DRSC29152] resulted in: Wolbachia per cell robust z, rep 1 = 0.838; Wolbachia per cell robust z, rep 2 = 0.818; Wolbachia per cell robust z, rep 3 = 1.92; inactive. Hmu [DRSC16705] scored Wolbachia per cell robust z, rep 1 = -0.557; Wolbachia per cell robust z, rep 2 = -0.087; Wolbachia per cell robust z, rep 3 = -2.2; inactive. Hmu [DRSC28454] gave Wolbachia per cell robust z, rep 1 = -0.836; Wolbachia per cell robust z, rep 2 = 0.472; Wolbachia per cell robust z, rep 3 = 0.221; inactive. For CG7974 [DRSC08607], the values are Wolbachia per cell robust z, rep 1 = -0.657; Wolbachia per cell robust z, rep 2 = -0.0245; Wolbachia per cell robust z, rep 3 = -1.6; inactive. Knock-down of CG7974 [DRSC26643] resulted in: Wolbachia per cell robust z, rep 1 = 0.111; Wolbachia per cell robust z, rep 2 = -1.18; Wolbachia per cell robust z, rep 3 = -0.285; inactive. Against Decay [DRSC16930], the entry reads Wolbachia per cell robust z, rep 1 = -0.0178; Wolbachia per cell robust z, rep 2 = -0.577; Wolbachia per cell robust z, rep 3 = -7.45; inactive.

After knock-down of rl [DRSC07833], the record shows Wolbachia per cell robust z, rep 1 = 0.208; Wolbachia per cell robust z, rep 2 = -3.53; Wolbachia per cell robust z, rep 3 = -1.2; inactive. rl [DRSC20742] gave Wolbachia per cell robust z, rep 1 = 0.0237; Wolbachia per cell robust z, rep 2 = -0.779; Wolbachia per cell robust z, rep 3 = 0.435; inactive. After knock-down of rl [DRSC21814] the results were Wolbachia per cell robust z, rep 1 = -0.0197; Wolbachia per cell robust z, rep 2 = -0.188; Wolbachia per cell robust z, rep 3 = -0.363; inactive. Mgat4b [DRSC10256] showed Wolbachia per cell robust z, rep 1 = -0.136; Wolbachia per cell robust z, rep 2 = 0.229; Wolbachia per cell robust z, rep 3 = 0.425; inactive. Mgat4b [DRSC29839] scored Wolbachia per cell robust z, rep 1 = 0.618; Wolbachia per cell robust z, rep 2 = -0.134; Wolbachia per cell robust z, rep 3 = -0.633; inactive. For CG33342 [DRSC13662], the values are Wolbachia per cell robust z, rep 1 = 1.13; Wolbachia per cell robust z, rep 2 = 0.147; Wolbachia per cell robust z, rep 3 = 0.915; inactive.

2 successive entries already listed:
rl [DRSC21814] | Wolbachia per cell robust z, rep 1: -0.0197; Wolbachia per cell robust z, rep 2: -0.188; Wolbachia per cell robust z, rep 3: -0.363; Call: inactive
Mgat4b [DRSC10256] | Wolbachia per cell robust z, rep 1: -0.136; Wolbachia per cell robust z, rep 2: 0.229; Wolbachia per cell robust z, rep 3: 0.425; Call: inactive
